Anti-infective test results gathered from many reports (values: NIAID ChemDB through PubChem).

Shared fields: toxicity to cultured cells; cells: L1210; measure: CC50

Conditions beyond the fields shown may differ between rows. CCn: concentration that lowers growth or viability of the cells by n%.

structure	result
Nc1nc(N)c2nc(CNc3ccc(C(=O)NC(CCP(=O)(O)O)C(=O)O)cc3)cnc2n1	0.067 µM
CN1CCc2c(sc(/N=c3\ssnc3Cl)c2C#N)C1	8 µM
Nc1cc(OCC2O[C@H](COCc3ccccc3)[C@@H](OCc3ccccc3)[C@H]2OCc2ccccc2)nc(N)n1	18 µM
CO/C=C(/C(=O)OC)[C@H](C)[C@H](/C=C/c1ccccc1)OC(C)=O	25 µg/mL
CO[C@H]1O[C@H](Cn2c(C)cc(=O)[nH]c2=O)[C@H](O)[C@H]1OCc1ccccc1F	≥250 µM
CO/C=C(/C(=O)OC)[C@H](C)C(=O)/C=C/c1ccccc1	10 µg/mL
Cc1ccccc1Cn1nnc(C#N)c1/N=c1\ssnc1Cl	7 µM
Nc1nc(N)c2nc(CNc3ccc(C(=O)NC(CP(=O)(O)O)C(=O)O)cc3)cnc2n1	0.25 µM
N#Cc1cnn(CCc2ccccc2)c1/N=c1\ssnc1Cl	5 µM
Nc1ccnc(OC[C@H]2CC[C@@H](COCc3ccccc3)O2)n1	≥250 µM
N#Cc1ncn(CCc2ccccc2)c1/N=c1\ssnc1Cl	3 µM
Nc1nccc(OC[C@@H]2O[C@H](CO)[C@@H](O)[C@H]2O)n1	>250 µM
Cn1ncc(C#N)c1/N=c1\ssnc1Cl	5 µM
Nc1cc(OC[C@@H]2O[C@H](CO)[C@@H](O)[C@H]2O)nc(N)n1	175 µM
CO[C@H]1O[C@H](Cn2cc(Br)c(=O)[nH]c2=O)[C@H](O)[C@H]1OCc1ccccc1F	>250 µM
Nc1nc(Cl)cc(OC[C@@H]2O[C@H](COCc3ccccc3)[C@@H](OCc3ccccc3)[C@H]2OCc2ccccc2)n1	33 µM
CC[C@@H]1/C=C(\C)C[C@H](C)C[C@H](OC)[C@H]2O[C@@](O)(C(=O)C(=O)N3CCCC[C@H]3C(=O)O[C@H](/C(C)=C/[C@H]3CC[C@H](O)[C@H](OC)C3)[C@H](C)[C@@H](O)CC1=O)[C@H](C)C[C@@H]2OC	34 µg/mL
Nc1nc(N)nc(OC[C@H]2CC[C@@H](COc3nc(N)nc(N)n3)O2)n1	>250 µM
CO[C@H]1O[C@H](Cn2cc(I)c(=O)[nH]c2=O)[C@H](O)[C@H]1OCc1ccccc1F	175 µM

2 of the rows above, restated:

structure | result
Nc1nc(N)c2nc(CNc3ccc(C(=O)NC(CCP(=O)(O)O)C(=O)O)cc3)cnc2n1 | 0.067 µM
Nc1ccnc(OC[C@H]2CC[C@@H](COCc3ccccc3)O2)n1 | ≥250 µM